Measured values from several laboratories, pooled; numbers as filed in NIAID ChemDB.

All rows: whole-cell or culture tests; organism: Mycobacterium avium complex; endpoint: MBC

Neighbouring rows are from separate reports. Blank or dashed fields: not listed here. a–b is a range or a potency band.

SMILES	strain or isolate	setting	result
CC1CN(c2cc3c(cc2F)c(=O)c(C(=O)O)cn3-c2ccc(F)cc2F)CCN1	ATCC 35718	-	>8 µg/mL
CC[C@H]1OC(=O)[C@H](C)[C@@H](O[C@H]2C[C@@](C)(OC)[C@@H](O)[C@H](C)O2)[C@H](C)[C@@H](O[C@@H]2O[C@H](C)C[C@H](N(C)C)[C@H]2O)[C@](C)(OC)C[C@@H](C)C(=O)[C@H](C)[C@@H](O)[C@]1(C)O	-	-	16–32 µg/mL
CC1(C)CC(N=c2cc3n(-c4ccc(Cl)c(Cl)c4)c4ccccc4nc-3cc2Nc2ccc(Cl)c(Cl)c2)CC(C)(C)N1	-	inside macrophages	4 µg/mL
CO[C@H]1/C=C/O[C@@]2(C)Oc3c(C)c(O)c4c(=O)c(c5oc6cc(N7CCN(CC(C)C)CC7)cc(=O)c6nc5c4c3=C2O)NC(=O)/C(C)=C\C=C\[C@H](C)[C@H](O)[C@@H](C)[C@@H](O)[C@@H](C)[C@H](OC(C)=O)[C@@H]1C	N-444	-	1 µg/mL
C[C@@H]1CN(c2c(F)c(N)c3c(=O)c(C(=O)O)cn(C4CC4)c3c2F)C[C@H](C)N1	ATCC 35718	-	8 µg/mL
CO[C@H]1/C=C/O[C@@]2(C)Oc3c(C)c(O)c4c(O)c(c5c(c4c3C2=O)NC2(CCN(CC(C)C)CC2)N=5)=NC(=O)/C(C)=C\C=C\[C@H](C)[C@H](O)[C@@H](C)[C@@H](O)[C@@H](C)[C@H](OC(C)=O)[C@@H]1C	168-4	-	16 µg/mL
C[C@@H]1CN(c2c(F)c(N)c3c(=O)c(C(=O)O)cn(C4CC4)c3c2F)C[C@H](C)N1	ATCC 13950	-	2 µg/mL
CO[C@H]1/C=C/O[C@@]2(C)Oc3c(C)c(O)c4c(=O)c(c5oc6cc(N7CCN(CC(C)C)CC7)cc(=O)c6nc5c4c3=C2O)NC(=O)/C(C)=C\C=C\[C@H](C)[C@H](O)[C@@H](C)[C@@H](O)[C@@H](C)[C@H](OC(C)=O)[C@@H]1C	N-444	-	1 µg/mL
CCN(CC)CCCN=c1cc2n(-c3ccc(Cl)cc3)c3ccccc3nc-2cc1Nc1ccc(Cl)cc1	-	inside macrophages	>4 µg/mL
CCCCCCC(C)c1ccc2c(c1)C(=O)c1nc3ccncc3c(=O)n1-2	19075	-	0.13 µg/mL
CCN=c1cc2n(-c3ccc(Cl)cc3)c3ccccc3nc-2cc1Nc1ccc(Cl)cc1	211	-	64 µg/mL
NC1CCN(c2c(F)cc3c(=O)c(C(=O)O)cn(C4CC4)c3c2Cl)C1	ATCC 35718	-	>8 µg/mL
CCN=c1cc2n(-c3ccc(Cl)cc3)c3ccc(Cl)cc3nc-2cc1Nc1ccc(Cl)cc1	-	inside macrophages	>4 µg/mL
NC[C@H]1O[C@H](O[C@H]2[C@H](O)[C@@H](O[C@H]3O[C@H](CO)[C@@H](O)[C@H](N)[C@H]3O)[C@H](N)C[C@@H]2N)[C@H](N)C[C@@H]1O	ATCC 35718	-	>64 µg/mL
CC[C@H]1OC(=O)[C@H](C)[C@@H](O[C@H]2C[C@@](C)(OC)[C@@H](O)[C@H](C)O2)[C@H](C)[C@@H](O[C@@H]2O[C@H](C)C[C@H](N(C)C)[C@H]2O)[C@](C)(OC)C[C@@H](C)C(=O)[C@H](C)[C@@H](O)[C@]1(C)O	N-444	-	32 µg/mL
C[C@H]1C[C@H](N)CN1c1cc2c(cc1F)c(=O)c(C(=O)O)cn2-c1ccc(F)cc1F	ATCC 35718	-	>8 µg/mL
CN[C@@H]1[C@H](O[C@H]2[C@H](O[C@H]3[C@H](O)[C@@H](O)[C@H](N=C(N)N)[C@@H](O)[C@@H]3N=C(N)N)O[C@@H](C)[C@]2(O)C=O)O[C@@H](CO)[C@H](O)[C@H]1O	ATCC 35718	-	8 µg/mL

2 of the rows above, restated:

SMILES	strain or isolate	setting	result
CC1CN(c2cc3c(cc2F)c(=O)c(C(=O)O)cn3-c2ccc(F)cc2F)CCN1	ATCC 35718	-	>8 µg/mL
CO[C@H]1/C=C/O[C@@]2(C)Oc3c(C)c(O)c4c(O)c(c5c(c4c3C2=O)NC2(CCN(CC(C)C)CC2)N=5)=NC(=O)/C(C)=C\C=C\[C@H](C)[C@H](O)[C@@H](C)[C@@H](O)[C@@H](C)[C@H](OC(C)=O)[C@@H]1C	168-4	-	16 µg/mL